Sequences of proteins named here, by UniProt entry; tags and fusion partners are left off. Residues count along the entry.
UniProt P0C6X1, 2966-3267 limits assumed: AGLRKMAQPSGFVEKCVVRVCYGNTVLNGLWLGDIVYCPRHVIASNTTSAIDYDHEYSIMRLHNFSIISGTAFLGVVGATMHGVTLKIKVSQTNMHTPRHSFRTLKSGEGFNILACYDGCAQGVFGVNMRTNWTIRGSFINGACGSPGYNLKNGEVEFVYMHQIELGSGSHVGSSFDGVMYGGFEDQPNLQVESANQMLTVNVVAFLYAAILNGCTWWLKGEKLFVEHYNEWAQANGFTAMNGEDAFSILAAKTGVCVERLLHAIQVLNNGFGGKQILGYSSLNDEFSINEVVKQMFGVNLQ

In patent publication US20220380347A1:

Legend:
229E Mpro = 229E Mpro (Human coronavirus 229E, UniProt P0C6X1); test: 229E Mpro enzymatic assay; conditions: read-out: 229E Mpro EC50
[1] = molecular target: COVID-19 (nCoV-2019, SARS-CoV2) Mpro (Severe acute respiratory syndrome coronavirus 2, UniProt P0DTD1); test: COVID-19; format: biochemical; conditions: read-out: COVID-19 Mpro IC50; 25 nM Mpro, 25 μM substrate
HCov OC43 = test: HCoV OC43 cytopathic effect; conditions: read-out: OC43 IC50 (uM) MEDIAN
HCoV 229E = HCoV 229E cytopathic effect; format: cell-based, human coronavirus (HCov) 229E; conditions: read-out: 229E CPE EC50; protection of virus-induced CPE

Structure (SMILES)	EC50 (229E Mpro) [µM]	IC50 [1] [µM]	IC50 (HCov OC43) [µM]	EC50 (HCoV 229E) [µM]
CC(C)(C)c1ccc(N(C(=O)[C@H]2Cc3ccccc3CN2)C(C(=O)NC2CCCCC2)c2cccnc2)cc1 (single isomer, unassigned)	> 30	> 30	> 30	
C[C@H](C(=O)N(c1ccc(C(C)(C)C)cc1)C(C(=O)NC1CCCCC1)c1cccnc1)N(C)C#N (single isomer, unassigned)	> 30	> 30	> 30	
CC(C)(C)c1ccc(N(C(=O)[C@H]2C[C@H](O)CN2)C(C(=O)NC2CCCCC2)c2cccnc2)cc1 (single isomer, unassigned)	> 30	> 30		
CC(C)(C)c1ccc(N(C(=O)[C@H]2C[C@@H](O)CN2C#N)C(C(=O)NC2CCCCC2)c2cncc(F)c2)cc1 (single isomer, unassigned)	< 2	< 2		< 2
CC1(C)CN[C@@H](C(=O)N(c2ccc(C(C)(C)C)cc2)C(C(=O)NC2CCCCC2)c2cccnc2)CO1 (single isomer, unassigned)	> 30	> 30		
CC(C)(C)c1ccc(N(C(=O)[C@H]2COCCN2)C(C(=O)NC2CCCCC2)c2cccnc2)cc1 (single isomer, unassigned)	> 30	> 30		
CC(C)(C)c1ccc(N(C(=O)[C@H]2C[C@@H](O)CN2)C(C(=O)NC2CCCCC2)c2cccnc2)cc1 (single isomer, unassigned)	> 30	> 30		
COc1ccncc1C(C(=O)NC1CCC(F)(F)CC1)N(C(=O)[C@H]1C[C@@](C)(O)CN1C#N)c1ccc(S(F)(F)(F)(F)F)cc1 (single isomer, unassigned)	< 2	< 2	< 2	
C[C@@]1(O)C[C@H](C(=O)N(c2ccc(S(F)(F)(F)(F)F)cc2)C(C(=O)NC2CCC(F)(F)CC2)c2cncnc2)N(C#N)C1 (single isomer, unassigned)	< 2	< 2	< 2	
CC(C)(C)c1ccc(N(C(=O)[C@@]2(C)CCCN2)C(C(=O)NC2CCCCC2)c2cccnc2)cc1 (single isomer, unassigned)	> 30	> 30		
